What was measured:
[1] = format: physicochemical
[2] = no reference given; cited from earlier work

With maraviroc the “solubility in DMS S12 PDMS relative to emtricitabine” value [1] was 100 fold, the solubility in cyclomethicone ([1]; below HPLC limit of detection, equilibrated at 18 ± 1 °C) was < 5.0 µg/mL and the “solubility in st-PDMS relative to emtricitabine” value ([1]; comparable percentage hydroxyl group values) was “up to 100 fold”. The “solubility in DMS S12” value ([1]; shake flask, equilibrated at 18 ± 1 °C) was 60000 µg/mL and the aqueous solubility [2] was 1000 µg/mL.
